Measurements as given in publication PMC6521205 (Viruses, 2019).

Experiments:
[1] = test system: ZIKV PRVABC59/Human/2015/Puerto Rico; assay: CellTiter-Glo activity assay, ZIKV PRVABC59-infected neural stem cells; type: cell-based, Zika virus; conditions: selectivity index: CC50/EC50, PRVABC59 strain
[2] = test system: ZIKV H/PAN/2016/BEI-259634; assay: CellTiter-Glo activity assay, ZIKV H/PAN-infected neural stem cells; type: cell-based, Zika virus; conditions: selectivity index: CC50/EC50, H/PAN strain
[3] = listed as 2′-C-ethynyluridine aryloxyl phosphoramidate ProTide
[4] = listed as 2′-C-methyladenosine aryloxyl phosphoramidate ProTide
[5] = listed as 2′-C-methyluridine aryloxyl phosphoramidate ProTide

Row | Compound | SI PRVABC59 ZIKV [1] | SI H/PAN ZIKV [2] | also measured
1 | C#CC1(O)C(O)C(COP(=O)(NC(C)C(=O)OC(C)C)Oc2ccccc2)OC1n1ccc(=O)[nH]c1=O (stereo not shown) [2′-C-Ethynyluridine Aryloxy Phosphoramidate] | >166 | >62 | SI PRVABC59 ZIKV [1, 3]: > 166; SI H/PAN ZIKV [2, 3]: > 62
2 | CC(C)OC(=O)C(C)NP(=O)(OCC1OC(n2cnc3c(N)ncnc32)C(C)(O)C1O)Oc1ccccc1 (stereo not shown) [2′-C-Methyladenosine aryloxyl phosphoramidate] | >4 | >2 | SI PRVABC59 ZIKV [1, 4]: > 4; SI H/PAN ZIKV [2, 4]: > 2
3 | CC(C)OC(=O)C(C)NP(=O)(OCC1OC(n2ccc(=O)[nH]c2=O)C(C)(O)C1O)Oc1ccccc1 (stereo not shown) [2′-C-methyluridine aryloxyl phosphoramidate] |  | >23 | SI PRVABC59 ZIKV [1, 5]: > 47; SI H/PAN ZIKV [2, 5]: > 23
4 | COC1C(O)C(COP(=O)(NC(C)C(=O)OC(C)C)Oc2ccccc2)OC1n1ccc(N)nc1=O (stereo not shown) [2′-O-Methylcytidine aryloxyl phosphoramidate] | >1 | >1 | 
5 | CC(C)OC(=O)C(C)NP(=O)(OCC1CC(O)C(n2cnc3c(N)ncnc32)O1)Oc1ccccc1 (stereo not shown) [3′-Deoxyadenosine aryloxyl phosphoramidate] | >1 | >1 | 
6 | CC(C)OC(=O)C(C)NP(=O)(OCC1CC(O)C(n2ccc(N)nc2=O)O1)Oc1ccccc1 (stereo not shown) [3′-Deoxycytidine aryloxyl phosphoramidate] | >1 | >1 | 
7 | COC1C(COP(=O)(NC(C)C(=O)OC(C)C)Oc2ccccc2)OC(n2ccc(=O)[nH]c2=O)C1O (stereo not shown) [3′-O-Methyluridine aryloxyl phosphoramidate] | >1 | >1 | 
8 | CSCCOP(=O)(NCCc1c[nH]c2ccccc12)OCC1OC(n2ccc(=O)[nH]c2=O)C(C)(O)C1O (stereo not shown) [(5-(2,4-dioxo-3,4-dihydropyrimidin-1(2H)-yl)-3,4-dihydroxy-4-methyltetrahydrofuran-2-yl)methyl (2-(methylthio)ethyl) (2-(1H-indol-3-yl)ethyl)phosphoramidate] | >1 | >1 | 
9 | CC(C)OC(=O)[C@H](C)N[P@](=O)(OC[C@H]1O[C@@H](n2ccc(=O)[nH]c2=O)[C@](C)(F)[C@@H]1O)Oc1ccccc1 [Sofosbuvir, reference compound] | >1.4 | >1.1 | SI PRVABC59 ZIKV ([1]; listed as sofosbuvir): > 1.4; SI H/PAN ZIKV ([2]; listed as sofosbuvir): > 1.1
